{"source": "PubChem BioAssay AID540271", "about": "(Broad Institute, 2011)", "system": "S. cerevisiae expressing PfHSP40, growth rescue, plate reader", "assay": "S cerevisiae expressing PfHSP40, growth rescue, cherry pick dose confirmatory, plate reader (AID 540271);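 note: yeast growth read after three days of incubation at 30 °C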"}
{"smiles": "CC(=O)OC1C(=O)OCC23CCC4(C)OC4C2OC2CC(OC(=O)C=CC=CC(=O)OCCC1C)C3(C)C21CO1", "note": "(stereo unspecified)", "values": [{"measurement": "AC50", "result": 5.82, "unit": "µM"}]}
